Compound potency records, mixed from different reports. Data source: NIAID ChemDB in PubChem.

Common to all: tests in culture; agent: Mycobacterium avium; endpoint: MIC

An empty or dashed field is not shown. Neighbouring rows are from separate reports.

structure	cells	read by	setting	strain	result
O=C(Oc1cc(Cl)ccc1C(=O)Nc1ccc(F)cc1)c1ccccc1		broth dilution	14 d	330/88	4 µM
C[C@H]1[C@H](C)CC[C@]2(C(=O)O)CC[C@]3(C)C(CC[C@@H]4[C@@]5(C)C[C@H](O)CC(C)(C)[C@@H]5CC[C@]43C)[C@H]12		resazurin			100 µg/mL
CCCCCCOc1ccc(NC(=O)OCCN(C)C)cc1				MY330/88	16 µM
O=C(Oc1cc(Cl)ccc1C(=O)Nc1cccc(Br)c1)c1ccccc1		broth dilution	14 d	330/88	4 µM
N/C(=N\N=C\c1ccccc1)SCc1cccc(Cl)c1		broth dilution	14 d	ATCC 25291	16 µM
COc1ccc(-n2c(=O)oc3ccc([N+](=O)[O-])cc3c2=O)cc1				CNCTC MY330/88	1000 µM
CCOC(=O)c1c(NC(=O)c2c(F)c(F)c(F)c(F)c2F)sc2c1CCNC2		turbidity			200 µM
O=c1oc2ccc(F)cc2c(=S)n1-c1ccc(F)cc1			21 d	MY330/88	16 µM
Cc1ccn2c(C(=O)NCc3ccc(N4CCN(c5ccc(C(F)(F)F)cc5)CC4)c(F)c3)c(C)nc2c1		resazurin		A5	>1 µg/mL
Brc1cncnc1-c1ccc(-c2ccccc2)s1		broth dilution			0.7 µg/mL
CCCCNC(=O)c1cc([N+](=O)[O-])cc([N+](=O)[O-])c1		visual reading			64 µg/mL
COc1ccc2oc(=O)n(-c3cccc(Cl)c3)c(=S)c2c1			14 d	MY330/88	62.5 µM
N=C(N)N1N=C(/C=C/c2ccc(Cl)cc2)CC1c1ccc(Cl)cc1		resazurin			1.74 µM
CCOc1ccccc1NC(=O)OCCN1CCOCC1				MY330/88	1000 µM
O=C(Oc1ccc(Cl)cc1C(=O)Nc1ccc(Br)cc1)c1ccccc1		broth dilution	21 d	330/88	8 µM
CC(C)=CCC1=C(O)c2ccccc2C(=O)C1=O		resazurin			32 µg/mL
CCCCCCCCCCOc1ccccc1NC(=O)OCC[NH+]1CCCC1				MY330/88	16 µM
CC(=O)Oc1ccccc1C(=O)Nc1cnccn1		resazurin			>100 µg/mL
N/C(=N\N=C\c1ccccc1)SCc1ccc(C(F)(F)F)cc1		broth dilution	21 d	ATCC 25291	62.5 µM
CC[C@H]1OC(=O)[C@H](C)[C@@H](O[C@H]2C[C@@](C)(OC)[C@@H](O)[C@H](C)O2)[C@H](C)[C@@H](O[C@@H]2O[C@H](C)C[C@H](N(C)C)[C@H]2O)[C@](C)(OC)C[C@@H](C)C(=O)[C@H](C)[C@@H](O)[C@]1(C)O	Human monocyte-derived macrophages	agar			8 µg/mL
FC(F)(F)c1cc(-c2ccccc2)nc(N2N=C(/C=C/c3ccc(Cl)cc3)CC2c2ccc(Cl)cc2)n1		resazurin			>20.6 µM
Oc1ccc(CCN=C=S)cc1		visual reading			32 µg/mL
CCCCOc1cccc(NC(=O)OCCN2CCCCC2)c1				MY330/88	125 µM
O=C(Oc1cc(Cl)ccc1C(=O)Nc1ccc(C(F)(F)F)cc1)c1ccccc1		broth dilution	21 d	330/88	8 µM
Cc1ccc(CS/C(N)=N/N=C/c2ccccc2)cc1		broth dilution	14 d	ATCC 25291	16 µM
O=c1oc2ccc(F)cc2c(=S)n1-c1cccc(F)c1			14 d	MY330/88	16 µM
COc1ccc2c(=O)n(-c3ccc(Cl)cc3)c(=O)oc2c1				CNCTC MY330/88	32 µM
CC[C@H]1OC(=O)[C@H](C)[C@@H](O[C@H]2C[C@@](C)(OC)[C@@H](O)[C@H](C)O2)[C@H](C)[C@@H](O[C@@H]2O[C@H](C)C[C@H](N(C)C)[C@H]2O)[C@](C)(OC)C[C@@H](C)C(=O)[C@H](C)[C@@H](O)[C@]1(C)O		broth dilution		IWGMT49	4 µg/mL
Cc1ccc2oc(=O)n(-c3ccc(Br)cc3)c(=O)c2c1				CNCTC MY330/88	16 µM
CCCCOc1cccc(NC(=O)OCCN(C)C)c1				MY330/88	125 µM
C[C@@H]([C@H](NC(=O)[C@H](CC1CCCCC1)NC(=O)N[C@@H](Cc1c[nH]c2ccccc12)C(=O)NCC(C)(C)C)C(=O)NC[C@H]1C[C@@H](O)[C@H](n2ccc(=O)[nH]c2=O)O1)N(C)C(=O)CN		resazurin / fluorescence		CA6	0.704 µM
C[C@@H]1CN(c2c(F)c(N)c3c(=O)c(C(=O)O)cn(C4CC4)c3c2F)C[C@H](C)N1		broth dilution / visual reading		ATCC 15769	0.5 µg/mL
O=c1oc2ccc(Br)cc2c(=S)n1-c1cccc(Cl)c1			21 d	MY330/88	32 µM
O=C(Oc1cc(Cl)ccc1C(=O)Nc1ccc(Br)cc1)c1ccccc1		broth dilution	14 d	330/88	4 µM
Cc1ccc2oc(=O)n(-c3ccc(Cl)cc3)c(=S)c2c1			14 d	MY330/88	2 µM
O=C(Oc1ccc(Cl)cc1C(=O)Nc1cccc(Cl)c1)c1ccccc1		broth dilution	14 d	330/88	4 µM
O=c1oc2ccc(Cl)cc2c(=O)n1-c1ccc([N+](=O)[O-])cc1				CNCTC MY330/88	8 µM
Cc1ccccc1/C=C/C1=NN(C(=N)N)C(c2ccccc2C)C1		resazurin			1.96 µM
Cc1ccc2oc(=O)n(-c3ccc(Cl)cc3)c(=O)c2c1				CNCTC MY330/88	16 µM
CO[C@H]1[C@@H](O)[C@H](n2ccc(=O)[nH]c2=O)O[C@@H]1[C@@H](O[C@H]1OC(C(=O)N[C@H]2CCC[C@@H](C)NC2=O)=C[C@H](O)[C@@H]1O)C(N)=O		broth dilution		complex strain 101	8 µg/mL

The last 6 rows once more:

Cc1ccc2oc(=O)n(-c3ccc(Cl)cc3)c(=S)c2c1 ; setting: 14 d ; strain: MY330/88 ; result: 2 µM
O=C(Oc1ccc(Cl)cc1C(=O)Nc1cccc(Cl)c1)c1ccccc1 ; read by: broth dilution ; setting: 14 d ; strain: 330/88 ; result: 4 µM
O=c1oc2ccc(Cl)cc2c(=O)n1-c1ccc([N+](=O)[O-])cc1 ; strain: CNCTC MY330/88 ; result: 8 µM
Cc1ccccc1/C=C/C1=NN(C(=N)N)C(c2ccccc2C)C1 ; read by: resazurin ; result: 1.96 µM
Cc1ccc2oc(=O)n(-c3ccc(Cl)cc3)c(=O)c2c1 ; strain: CNCTC MY330/88 ; result: 16 µM
CO[C@H]1[C@@H](O)[C@H](n2ccc(=O)[nH]c2=O)O[C@@H]1[C@@H](O[C@H]1OC(C(=O)N[C@H]2CCC[C@@H](C)NC2=O)=C[C@H](O)[C@@H]1O)C(N)=O ; read by: broth dilution ; strain: complex strain 101 ; result: 8 µg/mL